Molecular target: SARS CoV-2 reporter virus particle with spike protein D614G mutation (SARS-CoV-2) (UniProt P0DTC2)
Assay: cell-based or functional assay

anti-HIV antibody VRC01
Fold change GFP-/GFP+ (droplet neutralization, NGS reads), Round 1: 1
Fold change GFP-/GFP+ (droplet neutralization, NGS reads), Round 2: 0.964
